Results deposited as PubChem BioAssay AID1259414 (Drosophila RNAi Screening Center, 2018)
In all, the deposit lists about 24,000 reagents; this is an unselected part of those with a known target gene and a result. In the full data, about 1,210 (5%) were called active. 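Inactive calls also include excluded dsRNAs with several or no targets, genes unexpressed in JW18, and well A1, regardless of score.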 Reagents against one gene are numbered here. Reagent sequences are not shown.

Assay: 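Fly genes that alter Wolbachia amount inside host cells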 (primary screen)
Cell system: Drosophila JW18 cells infected with Wolbachia
Reagents: long dsRNA against Drosophila genes, 0.25 µg dsRNA per well of a 384-well plate
Time to read-out: 5 days
Treatment: cells persistently infected with Wolbachia before knock-down; no added drug
Read-out: 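Automated imaging of bacterial rRNA staining divided by host cell count, reported as plate-normalised robust z-score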
Scale: Wolbachia per cell robust z: higher = more Wolbachia per host cell than the plate typical
Call rule: 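Hit when robust z is 1.5 or more, or -1.5 or less, in at least two of three replicates; excludes dsRNAs with several or no targets, genes not expressed in JW18 and well A1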

| Gene | dsRNA no. | Wolbachia per cell robust z, rep 1 | Wolbachia per cell robust z, rep 2 | Wolbachia per cell robust z, rep 3 | activity call |
| --- | --- | --- | --- | --- | --- |
| mms4 | 1 | 0.409 | -0.671 | -2.87 | inactive |
| CG44085 | 1 | 0.9 | -0.293 | 0.836 | inactive |
| CG44085 | 2 | 0.531 | -0.805 | -2.71 | inactive |
| CG12239 | 1 | 0.553 | -0.492 | -0.781 | inactive |
| CG12239 | 2 | 0.896 | 0.597 | 0.63 | inactive |
| Obp56h | 1 | -0.713 | 0.567 | 0.41 | inactive |
| Obp56h | 2 | 0.408 | 1.63 | 0.999 | inactive |
| CG32276 | 1 | 0.765 | 0.219 | 0.848 | inactive |
| Alp1 | 1 | 0.0439 | -0.9 | 0.779 | inactive |
| CG10418 | 1 | 0.715 | -0.543 | -1.8 | inactive |
| CG12362 | 1 | -0.536 | -2.07 | 0.965 | inactive |
| CG42284 | 1 | -3.1 | 0.343 | 0.981 | inactive |
| CG42284 | 2 | 0.825 | 0.749 | -0.965 | inactive |
| CG14273 | 1 | -0.0977 | 0.118 | 0.801 | inactive |
| CG14273 | 2 | -0.727 | -7.01 | -0.144 | inactive |

Limited to “Wolbachia per cell robust z, rep 2”, for 2 of the entries above:
CG10418	-0.543
CG12362	-2.07

More results:
| Gene | dsRNA no. | Wolbachia per cell robust z, rep 1 | Wolbachia per cell robust z, rep 2 | Wolbachia per cell robust z, rep 3 | activity call |
| --- | --- | --- | --- | --- | --- |
| jus | 1 | 0.453 | 0.0909 | -3.72 | inactive |
| jus | 2 | -0.0693 | 0.185 | -1.12 | inactive |
| CG16812 | 1 | -0.117 | -0.804 | -1.43 | inactive |
| CG16812 | 2 | -0.824 | -0.798 | 0.103 | inactive |
| Kebab | 1 | 0.119 | -8.22 | -0.0457 | inactive |
| Kebab | 2 | -0.265 | -1.7 | -7.28 | active |
| Meltrin | 1 | 0.0658 | -7.54 | 2.7 | inactive |
| Meltrin | 2 | 0.0714 | 0.157 | -1.15 | inactive |
| CG10470 | 1 | 0.857 | -0.111 | -1.75 | inactive |
| PLCXD | 1 | 0.822 | -1.3 | -0.6 | inactive |
| Pgm2a | 1 | 0.243 | 0.915 | 0.349 | inactive |
| mAcon2 | 1 | -4.82 | -0.0784 | 0.173 | inactive |
| mAcon2 | 2 | 0.051 | -1.22 | -1.24 | inactive |
| Polr2I | 1 | 0.855 | -0.27 | 1.62 | inactive |
| CG34458 | 1 | -0.397 | 0.312 | 0.895 | inactive |
| CG34458 | 2 | 0.303 | 0.291 | -0.691 | inactive |
| CG4766 | 1 | 1.49 | -1.56 | -3.21 | inactive |
| CG6429 | 1 | 0.124 | -0.246 | -0.627 | inactive |
| MED16 | 1 | 0.0413 | -0.0558 | 0.487 | inactive |
| MED16 | 2 | 0.0375 | 0.455 | 1.7 | inactive |
| OtopLc | 1 | -0.475 | 0.144 | -0.477 | inactive |
| OtopLc | 2 | -0.0387 | 1.33 | -2.22 | inactive |
| OtopLc | 3 | 0.668 | 1.19 | 0.737 | inactive |
| OtopLc | 4 | -0.295 | 0.904 | -0.357 | inactive |
| OtopLc | 5 | -0.479 | -0.399 | -1.82 | inactive |
| OtopLc | 6 | -1.19 | -2.53 | -1.6 | active |
| kud | 1 | -0.661 | -1.64 | -1.38 | inactive |
| CG34427 | 1 | -0.501 | 0.332 | 0.0953 | inactive |
| CG33655 | 1 | 1.08 | -0.711 | 0.292 | inactive |
| CG11581 | 1 | -4.12 | 0.0755 | -0.0593 | inactive |
| CR40100 | 1 | 0.406 | -1.83 | 0.14 | inactive |
